The source of these data is PubChem BioAssay AID1448 (The Scripps Research Institute Molecular Screening Center, 2008).

Amino acid sequences for entries named in this document (tags omitted). A change or cut given only in a name is not applied to a line headed by its entry.
UniProt Q8TDD5: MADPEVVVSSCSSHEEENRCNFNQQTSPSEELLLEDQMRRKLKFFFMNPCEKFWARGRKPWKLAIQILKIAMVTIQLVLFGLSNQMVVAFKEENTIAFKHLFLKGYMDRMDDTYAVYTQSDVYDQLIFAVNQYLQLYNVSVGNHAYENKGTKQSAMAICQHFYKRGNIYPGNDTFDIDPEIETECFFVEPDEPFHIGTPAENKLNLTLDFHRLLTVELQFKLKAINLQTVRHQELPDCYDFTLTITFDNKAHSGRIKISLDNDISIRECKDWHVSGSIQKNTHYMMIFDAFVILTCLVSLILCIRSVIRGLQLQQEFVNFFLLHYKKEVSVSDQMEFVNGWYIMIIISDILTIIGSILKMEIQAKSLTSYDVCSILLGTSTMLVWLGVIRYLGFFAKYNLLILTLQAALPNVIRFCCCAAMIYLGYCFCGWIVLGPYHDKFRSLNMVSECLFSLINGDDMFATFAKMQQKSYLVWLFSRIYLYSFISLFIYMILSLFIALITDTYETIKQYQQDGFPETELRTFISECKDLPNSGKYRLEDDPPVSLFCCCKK

Where “and” joins values, the source holds several entries; their conditions need not be identical. Equal values may be shown once. The entries are a selection whose mix differs from that of the whole data set. Calls of active or inactive are those of the source.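 The calls were made as follows: active = activation above its plate's cutoff, the mean activation of the plate's test wells plus 3 SD (cut at about 12% in these data); inactive = the rest.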

For the test, the target named is Mucolipin-3 (Homo sapiens) (UniProt Q8TDD5). In words: human TRPML3 channel agonists, primary screen, cell-based, HEK293 TRPML3-YFP, Fluo-8 calcium fluorescence, 3 µM (AID 1448).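 Also: 0% = DMSO only wells and 100% = carbachol wells.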 Conditions: at 3 µM, active compounds read high, 100% = the carbachol control signal. The essentials: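 system = HEK293 cells stably carrying human TRPML3-YFP | doses = one concentration, 3 µM nominal, 0.3% DMSO | timing = dye loading 1 h 37 °C then 30 min ambient, 125 s read | detection = Fluo-8 calcium dye fluorescence, ex 470-495, em 515-575 nm | benchmarks = high control carbachol 87 µM, low control DMSO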
`COc1ccc(C2=NCC(CBr)S2)cc1` (centres undefined): the activation was inactive: 0.33%.
Then `O=[N+]([O-])c1cc([N+](=O)[O-])c(CCNc2ccccc2)c([N+](=O)[O-])c1`, with inactive: -0.3%; and `CCc1nc2c(n1)c1c(non1O)c1c2no[n+]1[O-]`, with inactive: 4.28%; and `Cc1ccc(NP(=O)(Oc2ccccc2)Oc2ccccc2)nc1`, with inactive: -0.11%.
As for `CC(=O)N1C2C3N(C(C)=O)C1C1N(C(C)=O)C(C(N1C(C)=O)N3C(C)=O)N2C(C)=O`, the figure is inactive: 0.58%; as for `O=[N+]([O-])c1cccc2n[nH]nc12`, inactive: -0.2%.
Then `CCN(/C(=N/P(=O)(N1CCOCC1)N1CCOCC1)N1CCOCC1)c1ccc(OC)cc1`, with inactive: 0.67%.
For `C[N+]1=C2C=CC=CC=C2SC12C([N+](=O)[O-])=CC([N+](=O)[O-])=C[C-]2[N+](=O)[O-]` (centres undefined), the activation was inactive: 1.74%.
As for `Nc1ccc([As](=O)(O)c2ccc(N)cc2)cc1`, the activation was inactive: 0.05%.
As for `CC1CCN(C(=O)Oc2c(Cl)cc(Cl)c3cccnc23)CC1`, the figure is inactive: -0.36%; as for `CN(C)C(=O)OCCc1n(C)cc[n+]1C`, inactive: 0.61%; as for `CC(C)=N/N=C(\N)N[N+](=O)[O-]`, inactive: 0.57%.
As for `O=C(Nc1cc([As](=O)(O)O)ccc1O)c1ccccc1`, the figure is inactive: 0.85%; as for `O=[N+]([O-])c1ncn(CCn2ncnc2[N+](=O)[O-])n1`, inactive: -0.4%; as for `CC(C)(C)C(=O)NC(Sc1ccncn1)C(Cl)(Cl)Cl` (centres undefined), inactive: -0.11%.
As for `O=C(O)CNc1ccc([As](=O)(O)O)cc1`, the figure is inactive: 0.78%; as for `O=[N+]([O-])c1cccc(NC2=NCC(CBr)S2)c1` (centres undefined), inactive: 0.57%.
In the case of `O=P(Nc1nc2ccc(Cl)cc2s1)(c1ccccc1)c1ccccc1`, the activation was inactive: -0.72%.
As for `CC(=O)Nc1ccc([As](=O)(O)O)cc1`, the figure is inactive: 1.01%.
`O=C(O)c1ccccc1[As](=O)(O)O`: the activation was inactive: 0.78%.
As for `Cc1ccc(NP(=O)(Oc2ccccc2F)Oc2ccccc2F)nc1`, the figure is inactive: 0.36%; as for `Cc1cc(SC(NC(=O)c2ccc(F)cc2)C(Cl)(Cl)Cl)ncn1` (centres undefined), inactive: -0.04%.
Then `CCOP(=O)(Nc1ccccc1)OCC`, with inactive: 0.42% and inactive: 0.61%.
`Nc1cccc2ccc([As](=O)(O)O)cc12`: the activation is inactive: 1.27%.
As for `CCN(N=Nc1nonc1N)c1nonc1N`, the figure is inactive: 0.42%.
As for `Cc1ccc(N/C(=N/P(=O)(N2CCOCC2)N2CCOCC2)N2CCOCC2)cc1`, the figure is inactive: 3.37%; as for `NC(=O)c1cc([N+](=O)[O-])cc([N+](=O)[O-])c1N`, inactive: 0.34%.
With `CN1CCCC(OC(=O)C(c2ccccc2)c2ccccc2)C1` (centres undefined), the activation was inactive: -0.09%.
Then `Clc1ccc(Cl)c(NC2=NCC(CBr)S2)c1` (centres undefined), with inactive: 0.76%.
As for `Cc1ccc(OP(=O)(Nc2nccs2)Oc2ccc(C)cc2)cc1`, the figure is inactive: 0.38%; as for `COc1ccccc1OP(=O)(Nc1ccc(C)cn1)Oc1ccccc1OC`, inactive: 0.1%; as for `O=C(NC(Sc1ccncn1)C(Cl)(Cl)Cl)c1ccccc1` (centres undefined), inactive: 0.45%.
Then `Cc1c2non([O-])c-2c(C)[n+](=O)[n+]1[O-]`, with inactive: 1.39%; and `Oc1ccccc1CNc1ccccn1`, with inactive: 0.13%; and `Nc1cc(N)c2nonc2c1[N+](=O)[O-]`, with inactive: 0.42%.
Consider `CC(C)CC(=O)NC(Sc1ccc(Cl)cc1)C(Cl)(Cl)Cl` (centres undefined), for which the activation was inactive: -0.7%.
As for `CCOc1ccc(C2=NCC(CBr)S2)cc1` (centres undefined), the figure is inactive: 0.84%; as for `O=P1(Nc2nc3ccc(Cl)cc3s2)COc2ccccc2O1` (centres undefined), inactive: 0.11%; as for `CC(C)(C)C(=O)NC(Sc1ccccc1)C(Cl)(Cl)Cl` (centres undefined), inactive: 0.25%.
For `CC(=O)Nc1ccc(Oc2c([N+](=O)[O-])cc([N+](=O)[O-])cc2[N+](=O)[O-])cc1`, the activation is inactive: 0.43%.
Then `CC(=O)Nc1ccc([As](=O)(O)O)c(O)c1`, with inactive: 0.71%; and `Cc1ccc(NP(=O)(Oc2cccc(C)c2)Oc2cccc(C)c2)nc1`, with inactive: -0.73%; and `CCOC(=O)NC(Sc1ccccc1)C(Cl)(Cl)Cl` (centres undefined), with inactive: -0.28%.
As to `c1ccc(-c2nn[nH]n2)c(-c2nn[nH]n2)c1`, the activation is inactive: 0.18%.
Then `O=C(NC1CCS(=O)(=O)C1)NP(=S)(Oc1ccccc1)Oc1ccccc1` (centres undefined), with inactive: 0.1%; and `CCNC(=S)/N=C(\N)N[N+](=O)[O-]`, with inactive: 0.26%.
Then `CCC(=O)N1C2C3N(C(=O)CC)C1C1N(C(=O)CC)C(C(N1C(=O)CC)N3C(=O)CC)N2C(=O)CC`, with inactive: 0.06%; and `CC(=O)NC(SC(=S)N(CC(C)C)CC(C)C)C(Cl)(Cl)Cl` (centres undefined), with inactive: 0.18%; and `Cc1ccc(OP(=O)(Nc2ccccn2)Oc2ccc(C)cc2)cc1`, with inactive: 0.6%.
For the molecule `COC(=O)c1cc2c(s1)N=C(c1ccccc1)N(C)P2(=O)N1CCOCC1` (centres undefined), the activation was inactive: -0.11%.
As for `O=c1c2cc([N+](=O)[O-])ccc2[nH]c2c([N+](=O)[O-])cc([N+](=O)[O-])cc12`, the figure is active: 21.9%.
Then `CN(C)C(=O)Oc1noc2ccccc12`, with inactive: 0.37%.
As for `Cc1ccccc1OP(=O)(Nc1ccccn1)Oc1ccccc1C`, the figure is inactive: -0.59%.
As to `O=P(Nc1ccccn1)(c1ccc(Br)cc1)c1ccc(Br)cc1`, the activation is inactive: -1.3%.
`O=P(Nc1nc2ccccc2s1)(c1ccccc1)c1ccccc1`: the activation was inactive: -0.46%.
As to `O=[As](O)(c1ccccc1)c1ccc(O)cc1`, the activation is inactive: 0.39%.
Then `CC(=O)NC(SC(=S)N(C)C)C(Cl)(Cl)Cl` (centres undefined), with inactive: 1.16%; and `O=[N+]([O-])c1ncn(CCn2cnc([N+](=O)[O-])n2)n1`, with inactive: 0.86%.
As for `O=C(OC1CN2CCC1CC2)c1cccc(Cl)c1` (centres undefined), the figure is inactive: 0.81%; as for `C(Cc1nn[nH]n1)Cc1nn[nH]n1`, inactive: 1.04%; as for `Nc1ccc([As](=O)(O)c2ccc([N+](=O)[O-])cc2)cc1`, inactive: 0.51%.
Then `O=P(Nc1nccs1)(c1ccccc1)c1ccccc1`, with inactive: -0.36%.
As to `CC(C)C(=O)NC(Sc1ccccc1)C(Cl)(Cl)Cl` (centres undefined), the activation is inactive: -0.85%.
As for `c1nnnn1CCn1cnnn1`, the figure is inactive: 0.87%; as for `O=P1(Nc2ccccn2)COc2ccccc2OC1`, inactive: 0.84%; as for `CCOP(=O)(Nc1ccc(C)cn1)OCC`, inactive: 0.73%.
As for `CC(C)(C)C(=O)NC(Sc1ncccn1)C(Cl)(Cl)Cl` (centres undefined), the figure is inactive: 0.64%; as for `Clc1n[nH]nc1-c1nn[nH][15n]1`, inactive: 0.33%.
As for `CN(C(=O)Cc1ccc(Cl)c(Cl)c1)[C@@H]1CCCC[C@H]1N1CCCC1`, the figure is inactive: 0.97%.
With `CC(C)/C=N\N=C(\N)N[N+](=O)[O-]`, the activation is inactive: 0.7%.
Then `CC1(CBr)Cn2c(nc3ccccc3c2=O)S1` (centres undefined), with inactive: 0.28%.
As for `O=[As](O)(c1ccccc1Br)c1ccccc1Br`, the figure is inactive: 0.67%; as for `CC1CCC(C(C)C)C(OP(=O)(Nc2ccccn2)c2ccccc2)C1` (centres undefined), inactive: 0.04%.
Then `Cc1nn(-c2ccccc2)c2c1P(=O)(N1CCOCC1)N(C)C(c1ccccc1)=N2` (centres undefined), with inactive: 0.72%; and `CN(C)C1(CNC(=O)c2ccc(S(C)(=O)=O)cc2)CCCCC1`, with inactive: 0.89%.
For `O=C(/C=C/c1ccccc1)OC1CN2CCC1CC2` (centres undefined), the activation was inactive: -0.69%.
As for `O=P1(Nc2ncccn2)COc2ccccc2OC1`, the figure is inactive: 0.57%; as for `Nc1cccc([As](=O)(O)c2ccccc2)c1`, inactive: 0.65%.
As for `Cc1ccc(OCC(=O)OC2CN3CCC2CC3)cc1` (centres undefined), the figure is inactive: -0.13%; as for `O=[As](O)(c1cccs1)c1cccs1`, inactive: 1.12%.
Then `O=P1(Nc2ccc(Br)cn2)COc2ccccc2OC1`, with inactive: 0.34%; and `O=P(Nc1nccs1)(Oc1ccccc1)Oc1ccccc1`, with inactive: 0.63%; and `O=P(Nc1nccs1)(c1ccccc1)c1nc2ccccc2s1` (centres undefined), with inactive: 0.88%.
On to `CCOP1(=S)c2c(C)nn(CCC#N)c2N=C(c2ccccc2F)N1C` (centres undefined), for which the activation was inactive: 0.55%.
As for `CS(=O)(=O)c1cc([N+](=O)[O-])c2no[n+]([O-])c2c1`, the activation was inactive: 0.88%.
As for `O=C(O)COc1ccc([As](=O)(O)O)cc1[N+](=O)[O-]`, the figure is inactive: -0.69%; as for `Nc1ccccc1[As](=O)(O)c1ccccc1`, inactive: 0.53%; as for `CCOP1(=S)c2c(C)nn(CCC#N)c2N=C(c2ccc(F)cc2)N1C` (centres undefined), inactive: -0.47%.
Then `O=[N+]([O-])c1ccc2c(c1)nnn2O`, with inactive: 0.61%.
On to `O=C(OC1CN2CCC1CC2)c1ccc(Cl)cc1` (centres undefined), for which the activation is inactive: 0.38%.
Then `O=[As](O)(O)c1cccnc1`, with inactive: 0.41%.
As for `COc1cc(C(=O)NCC2(N3CCOCC3)CCCCC2)cc(Cl)c1OC(C)C`, the figure is inactive: 0.78%; as for `Cc1cccc(OCC(=O)OC2CN3CCC2CC3)c1` (centres undefined), inactive: 0.31%; as for `O=[As](O)(c1cccc(O)c1)c1cccc(O)c1`, inactive: 0.89%.
As for `Cc1ccc(NCCc2c([N+](=O)[O-])cc([N+](=O)[O-])cc2[N+](=O)[O-])cc1`, the figure is inactive: 0.69%.
In the case of `Nc1cccc2c([As](=O)(O)O)cccc12`, the activation is inactive: 2.25%.
As for `CCCOP(=S)(Nc1nc(N)cc(=O)[nH]1)OCCC`, the figure is inactive: 1.02%; as for `CCOP(=O)(Nc1cccc2ccccc12)OCC`, inactive: 0.41%.
In the case of `COc1cc(C2NCCC3(OCCO3)C2(C)C)cc(OC)c1OC` (centres undefined), the activation was inactive: -0.08%.
Then `Cc1c2c(nc3ccccc13)SC(C(Cl)Cl)C2` (centres undefined), with inactive: -0.3%; and `Cc1cc(=O)[nH]c(N[N+](=O)[O-])n1`, with inactive: 0.97%.
Take `O=C(OC1CN2CCC1CC2)C12CC3CC(CC(C3)C1)C2` (centres undefined): the activation is inactive: 0.89%.
Then `COc1cc(I)ccc1[As](=O)(O)O`, with inactive: 1.12%; and `COc1ccc2nc(NP(=O)(c3ccccc3)c3ccccc3)sc2c1`, with inactive: -0.84%.
